Laboratory results published in patent US20220089698A1, “ANTIBODIES THAT TARGET HIV GP120 AND METHODS OF USE” (published 2022).

Columns and labels:
Assay in all cases: cell-based or functional assay
[1] = target: HIV-1 envelope glycoprotein (gp120) of virus 7141 (HIV-1)
[2] = target: HIV-1 envelope glycoprotein (gp120) of virus 92US727 (HIV-1)
[3] = target: HIV-1 envelope glycoprotein (gp120) of virus VS001 (HIV-1)
[4] = target: HIV-1 envelope glycoprotein (gp120) of virus 92US712 (HIV-1)

| Binder | Neutralization IC50 [1] [µg/mL] | Neutralization IC50 [2] [µg/mL] | Neutralization IC50 [3] [µg/mL] | Neutralization IC50 [4] [µg/mL] |
| --- | --- | --- | --- | --- |
| 2.3.11-1 (antibody, human IgG1, kappa) heavy: QVHLSQSGAAVTKPGASVRVSCEASGYNIRDYFIHWWRQAPGQGLQWVGWINPKTGQPNNPRQFQGRVSLTRHASWDFDTFSFYMDLKAVRSDDTAIYFCARQRSDYWDFDVWGSGTQVTVSSASTKGPSVFPLAPSSKSTSGGTAALGCLVKDYFPEPVTVSWNSGALTSGVHTFPAVLQSSGLYSLSSVVTVPSSSLGTQTYICNVNHKPSNTKVDKKVEPKSCDKTHTCPPCPAPELLAGPDVFLFPPKPKDTLMISRTPEVTCVVVDVSHEDPEVKFNWYVDGVEVHNAKTKPREEQYNSTYRVVSVLTVLHQDWLNGKEYKCKVSNKALPLPEEKTISKAKGQPREPQVYTLPPSREEMTKNQVSLTCLVKGFYPSDIAVEWESNGQPENNYKTTPPVLDSDGSFFLYSKLTVDKSRWQQGNVFSCSVLHEALHSHYTQKSLSLSPGK light: not shown | 11.2 | > 50 | 0.83 | 0.07 |
| 2.2.14-1 (antibody, human IgG1, kappa) heavy: QVHLSQSGAAVTKPGASVRVSCEASGYKIRDHFIHWWRQAPGQGLQWVGWINPKTGQPNNPRQFQGRVSLTRHASWDFDTFSFYMDLKAVRSDDTAIYFCARQRSDYWDFDVWGSGTQVTVSSASTKGPSVFPLAPSSKSTSGGTAALGCLVKDYFPEPVTVSWNSGALTSGVHTFPAVLQSSGLYSLSSVVTVPSSSLGTQTYICNVNHKPSNTKVDKKVEPKSCDKTHTCPPCPAPELLAGPDVFLFPPKPKDTLMISRTPEVTCVVVDVSHEDPEVKFNWYVDGVEVHNAKTKPREEQYNSTYRVVSVLTVLHQDWLNGKEYKCKVSNKALPLPEEKTISKAKGQPREPQVYTLPPSREEMTKNQVSLTCLVKGFYPSDIAVEWESNGQPENNYKTTPPVLDSDGSFFLYSKLTVDKSRWQQGNVFSCSVLHEALHSHYTQKSLSLSPGK light: not shown | 2.26 | > 50 | 0.21 | 0.06 |
| 2.3.14-1 (antibody, human IgG1, kappa) heavy: QVHLSQSGAAVTKPGASVRVSCEASGYNIRDYFIHWWRQAPGQGLQWVGWINPKTGQPNNPRQFQGRVSLTRHASWDFDTFSFYMDLKAVRSDDTAIYFCARQRSDYWDFDVWGSGTQVTVSSASTKGPSVFPLAPSSKSTSGGTAALGCLVKDYFPEPVTVSWNSGALTSGVHTFPAVLQSSGLYSLSSVVTVPSSSLGTQTYICNVNHKPSNTKVDKKVEPKSCDKTHTCPPCPAPELLAGPDVFLFPPKPKDTLMISRTPEVTCVVVDVSHEDPEVKFNWYVDGVEVHNAKTKPREEQYNSTYRVVSVLTVLHQDWLNGKEYKCKVSNKALPLPEEKTISKAKGQPREPQVYTLPPSREEMTKNQVSLTCLVKGFYPSDIAVEWESNGQPENNYKTTPPVLDSDGSFFLYSKLTVDKSRWQQGNVFSCSVLHEALHSHYTQKSLSLSPGK light: not shown | 5.23 | 35.3 | 0.21 | 0.11 |
| 2.2.5-1 (antibody, human IgG1, kappa) heavy: QVHLSQSGAAVTKPGASVRVSCEASGYKIRDHFIHWWRQAPGQGLQWVGWINPKTGQPNNPRQFQGRVSLTRHASWDFDTFSFYMDLKAVRSDDTAIYFCARQRSDYWDFDVWGSGTQVTVSSASTKGPSVFPLAPSSKSTSGGTAALGCLVKDYFPEPVTVSWNSGALTSGVHTFPAVLQSSGLYSLSSVVTVPSSSLGTQTYICNVNHKPSNTKVDKKVEPKSCDKTHTCPPCPAPELLAGPDVFLFPPKPKDTLMISRTPEVTCVVVDVSHEDPEVKFNWYVDGVEVHNAKTKPREEQYNSTYRVVSVLTVLHQDWLNGKEYKCKVSNKALPLPEEKTISKAKGQPREPQVYTLPPSREEMTKNQVSLTCLVKGFYPSDIAVEWESNGQPENNYKTTPPVLDSDGSFFLYSKLTVDKSRWQQGNVFSCSVLHEALHSHYTQKSLSLSPGK light: not shown | 2.34 | > 50 | 0.13 | 0.05 |
| 2.3.5-1 (antibody, human IgG1, kappa) heavy: QVHLSQSGAAVTKPGASVRVSCEASGYNIRDYFIHWWRQAPGQGLQWVGWINPKTGQPNNPRQFQGRVSLTRHASWDFDTFSFYMDLKAVRSDDTAIYFCARQRSDYWDFDVWGSGTQVTVSSASTKGPSVFPLAPSSKSTSGGTAALGCLVKDYFPEPVTVSWNSGALTSGVHTFPAVLQSSGLYSLSSVVTVPSSSLGTQTYICNVNHKPSNTKVDKKVEPKSCDKTHTCPPCPAPELLAGPDVFLFPPKPKDTLMISRTPEVTCVVVDVSHEDPEVKFNWYVDGVEVHNAKTKPREEQYNSTYRVVSVLTVLHQDWLNGKEYKCKVSNKALPLPEEKTISKAKGQPREPQVYTLPPSREEMTKNQVSLTCLVKGFYPSDIAVEWESNGQPENNYKTTPPVLDSDGSFFLYSKLTVDKSRWQQGNVFSCSVLHEALHSHYTQKSLSLSPGK light: not shown | 3.52 | > 50 | 0.19 | 0.05 |
| 2.2.2-1 (antibody, human IgG1, kappa) heavy: QVHLSQSGAAVTKPGASVRVSCEASGYKIRDHFIHWWRQAPGQGLQWVGWINPKTGQPNNPRQFQGRVSLTRHASWDFDTFSFYMDLKAVRSDDTAIYFCARQRSDYWDFDVWGSGTQVTVSSASTKGPSVFPLAPSSKSTSGGTAALGCLVKDYFPEPVTVSWNSGALTSGVHTFPAVLQSSGLYSLSSVVTVPSSSLGTQTYICNVNHKPSNTKVDKKVEPKSCDKTHTCPPCPAPELLAGPDVFLFPPKPKDTLMISRTPEVTCVVVDVSHEDPEVKFNWYVDGVEVHNAKTKPREEQYNSTYRVVSVLTVLHQDWLNGKEYKCKVSNKALPLPEEKTISKAKGQPREPQVYTLPPSREEMTKNQVSLTCLVKGFYPSDIAVEWESNGQPENNYKTTPPVLDSDGSFFLYSKLTVDKSRWQQGNVFSCSVLHEALHSHYTQKSLSLSPGK light: not shown | 2.06 | > 50 | 0.44 | 0.04 |
| 2.3.2-1 (antibody, human IgG1, kappa) heavy: QVHLSQSGAAVTKPGASVRVSCEASGYNIRDYFIHWWRQAPGQGLQWVGWINPKTGQPNNPRQFQGRVSLTRHASWDFDTFSFYMDLKAVRSDDTAIYFCARQRSDYWDFDVWGSGTQVTVSSASTKGPSVFPLAPSSKSTSGGTAALGCLVKDYFPEPVTVSWNSGALTSGVHTFPAVLQSSGLYSLSSVVTVPSSSLGTQTYICNVNHKPSNTKVDKKVEPKSCDKTHTCPPCPAPELLAGPDVFLFPPKPKDTLMISRTPEVTCVVVDVSHEDPEVKFNWYVDGVEVHNAKTKPREEQYNSTYRVVSVLTVLHQDWLNGKEYKCKVSNKALPLPEEKTISKAKGQPREPQVYTLPPSREEMTKNQVSLTCLVKGFYPSDIAVEWESNGQPENNYKTTPPVLDSDGSFFLYSKLTVDKSRWQQGNVFSCSVLHEALHSHYTQKSLSLSPGK light: not shown | 14.6 | > 50 | 0.88 | 0.1 |
| 2.2.16-1 (antibody, human IgG1, kappa) heavy: QVHLSQSGAAVTKPGASVRVSCEASGYKIRDHFIHWWRQAPGQGLQWVGWINPKTGQPNNPRQFQGRVSLTRHASWDFDTFSFYMDLKAVRSDDTAIYFCARQRSDYWDFDVWGSGTQVTVSSASTKGPSVFPLAPSSKSTSGGTAALGCLVKDYFPEPVTVSWNSGALTSGVHTFPAVLQSSGLYSLSSVVTVPSSSLGTQTYICNVNHKPSNTKVDKKVEPKSCDKTHTCPPCPAPELLAGPDVFLFPPKPKDTLMISRTPEVTCVVVDVSHEDPEVKFNWYVDGVEVHNAKTKPREEQYNSTYRVVSVLTVLHQDWLNGKEYKCKVSNKALPLPEEKTISKAKGQPREPQVYTLPPSREEMTKNQVSLTCLVKGFYPSDIAVEWESNGQPENNYKTTPPVLDSDGSFFLYSKLTVDKSRWQQGNVFSCSVLHEALHSHYTQKSLSLSPGK light: not shown | 3.38 | > 50 | 0.78 | 0.05 |
| 2.3.16-1 (antibody, human IgG1, kappa) heavy: QVHLSQSGAAVTKPGASVRVSCEASGYNIRDYFIHWWRQAPGQGLQWVGWINPKTGQPNNPRQFQGRVSLTRHASWDFDTFSFYMDLKAVRSDDTAIYFCARQRSDYWDFDVWGSGTQVTVSSASTKGPSVFPLAPSSKSTSGGTAALGCLVKDYFPEPVTVSWNSGALTSGVHTFPAVLQSSGLYSLSSVVTVPSSSLGTQTYICNVNHKPSNTKVDKKVEPKSCDKTHTCPPCPAPELLAGPDVFLFPPKPKDTLMISRTPEVTCVVVDVSHEDPEVKFNWYVDGVEVHNAKTKPREEQYNSTYRVVSVLTVLHQDWLNGKEYKCKVSNKALPLPEEKTISKAKGQPREPQVYTLPPSREEMTKNQVSLTCLVKGFYPSDIAVEWESNGQPENNYKTTPPVLDSDGSFFLYSKLTVDKSRWQQGNVFSCSVLHEALHSHYTQKSLSLSPGK light: not shown | 10.2 | > 50 | 0.72 | 0.09 |
| 2.2.19-1 (antibody, human IgG1, kappa) heavy: QVHLSQSGAAVTKPGASVRVSCEASGYKIRDHFIHWWRQAPGQGLQWVGWINPKTGQPNNPRQFQGRVSLTRHASWDFDTFSFYMDLKAVRSDDTAIYFCARQRSDYWDFDVWGSGTQVTVSSASTKGPSVFPLAPSSKSTSGGTAALGCLVKDYFPEPVTVSWNSGALTSGVHTFPAVLQSSGLYSLSSVVTVPSSSLGTQTYICNVNHKPSNTKVDKKVEPKSCDKTHTCPPCPAPELLAGPDVFLFPPKPKDTLMISRTPEVTCVVVDVSHEDPEVKFNWYVDGVEVHNAKTKPREEQYNSTYRVVSVLTVLHQDWLNGKEYKCKVSNKALPLPEEKTISKAKGQPREPQVYTLPPSREEMTKNQVSLTCLVKGFYPSDIAVEWESNGQPENNYKTTPPVLDSDGSFFLYSKLTVDKSRWQQGNVFSCSVLHEALHSHYTQKSLSLSPGK light: not shown | 4.83 | > 50 | 1.04 | 0.06 |
| 2.3.19-1 (antibody, human IgG1, kappa) heavy: QVHLSQSGAAVTKPGASVRVSCEASGYNIRDYFIHWWRQAPGQGLQWVGWINPKTGQPNNPRQFQGRVSLTRHASWDFDTFSFYMDLKAVRSDDTAIYFCARQRSDYWDFDVWGSGTQVTVSSASTKGPSVFPLAPSSKSTSGGTAALGCLVKDYFPEPVTVSWNSGALTSGVHTFPAVLQSSGLYSLSSVVTVPSSSLGTQTYICNVNHKPSNTKVDKKVEPKSCDKTHTCPPCPAPELLAGPDVFLFPPKPKDTLMISRTPEVTCVVVDVSHEDPEVKFNWYVDGVEVHNAKTKPREEQYNSTYRVVSVLTVLHQDWLNGKEYKCKVSNKALPLPEEKTISKAKGQPREPQVYTLPPSREEMTKNQVSLTCLVKGFYPSDIAVEWESNGQPENNYKTTPPVLDSDGSFFLYSKLTVDKSRWQQGNVFSCSVLHEALHSHYTQKSLSLSPGK light: not shown | 12 | > 50 | 0.48 | 0.09 |
